# In ChEMBL document CHEMBL4138316, “Optimization of Isothiazolo[4,3- b]pyridine-Based Inhibitors of Cyclin G Associated Kinase (GAK) with Broad-Spectrum Antiviral Activity” (J Med Chem, 2018):
# System: Ebolavirus
# Assay: Antiviral activity against Ebolavirus infected in human HuH7 cells after 48 hrs by immunofluorescence assay
# Type: functional, cell-based
# Settings: Orthoebolavirus, Huh-7, 48 h
structure (smiles),measurement,value
COc1cc(-c2cnc3c(N4CCOCC4)snc3c2)ccc1N,EC50,11.9 µM
